Results of unrelated studies side by side (data: NIAID ChemDB).

Common to all: cytotoxicity tests; cell line: Huh 5-2; measure: CC50

CCn: concentration that lowers growth or viability of the cells by n%.

| smiles | read by | result |
|---|---|---|
| NC(=O)c1nc(C#CCC2=CCCCC2)n(COCCO)n1 | - | >50 µg/mL |
| COc1ccc(/C=C2\S/C(=N/S(=O)(=O)c3ccc(F)cc3)NC2=O)cc1 | MTS | 88.77 µM |
| NC(=O)c1nc(C#CCc2cccc(F)c2)n(COCCO)n1 | - | 29 µg/mL |
| Nc1ccc(S(=O)(=O)/N=C2/NC(=O)/C(=C/c3ccccc3Cl)S2)cc1 | MTS | >127 µM |
| N#Cc1cccc(COc2c(-c3ccccc3)cc3occc(=O)c3c2O)c1 | WST | 55 µM |
| COC(=O)/C=C1\S/C(=N/N=C/c2cc(OC)c(O)c(OC)c2)NC1=O | MTS / absorbance | 26.2 µM |
| COc1cccc(-c2nc3ccn(Cc4ccc(Br)cc4)cc-3n2)c1 | - | 2 µg/mL |
| Cc1cccc(COc2c(-c3ccccc3)cc3occc(=O)c3c2O)c1 | WST | 45 µM |
| OC[C@H]1O[C@@H](n2cnc3cncnc32)[C@H](O)[C@@]1(O)CF | WST | >100 µM |
| Ic1ccc(Cn2ccc3nc(-c4ccccc4)nc-3c2)cc1 | - | 6 µg/mL |
| COC(=O)/C=C1\S/C(=N/N=C/C2CCCCC2)NC1=O | MTS / absorbance | 29.9 µM |
| O=c1ccoc2cc(-c3ccccc3)c(OCc3cccc(Cl)c3)c(O)c12 | WST | 54 µM |
| [N-]=[N+]=NC[C@@]1(O)[C@@H](CO)O[C@@H](n2cnc3c(=O)[nH]cnc32)[C@@H]1O | WST | >100 µM |
| COc1cc(OC)c2c(=O)cc(-c3ccc(OP(=O)(O)OP(=O)(O)O)c(N)c3)n(C)c2c1 | - | >50 µg/mL |
| COc1ccccc1N1CCN(C(=O)CNc2ccc(S(=O)(=O)/N=C3\NC(=O)/C(=C/c4ccccc4Cl)S3)cc2)CC1 | MTS | >80 µM |
| Fc1cccc(Cn2ccc3nc(-c4ccccc4)nc-3c2)c1 | - | 3 µg/mL |
| COC(=O)/C=C1\S/C(=N/N=C/c2ccc(Cl)cc2)NC1=O | MTS / absorbance | >50 µM |
| NC(=O)c1nc(C#CCc2ccccc2F)n(COCCO)n1 | - | >50 µg/mL |
| N#Cc1cccc(S(=O)(=O)N(Cc2c(Cl)cccc2Cl)c2cccc(C(=O)NC3CCC3)c2)c1 | absorbance | >33 µM |
| CNc1ncnc2c1ncn2[C@@H]1O[C@H](CO)[C@](O)(CN=[N+]=[N-])[C@H]1O | WST | >100 µM |
| O=C1N/C(=N\S(=O)(=O)c2ccc(Cl)cc2)S/C1=C\c1cccnc1 | MTS | >132 µM |
| Cc1ccc(CC#Cc2nc(C(N)=O)nn2COCCO)cc1 | - | >50 µg/mL |
| COC(=O)/C=C1\S/C(=N/N=C/c2ccc(OC)cc2)NC1=O | MTS / absorbance | 36.9 µM |

The last 2 rows once more:

smiles | read by | result
Cc1ccc(CC#Cc2nc(C(N)=O)nn2COCCO)cc1 | - | >50 µg/mL
COC(=O)/C=C1\S/C(=N/N=C/c2ccc(OC)cc2)NC1=O | MTS / absorbance | 36.9 µM

Conditions beyond the fields shown may differ between rows. Blank or dashed fields: not listed here.